Laboratory results: PubChem BioAssay AID485275 (NMMLSC, 2010)
The entries are a selection whose mix differs from that of the whole data set. Active and inactive are the calls of the source.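 The calls were made as follows: active = plate passing quality check with inhibition over a set limit, or well fluorescence over plate mean plus 4 SD; inactive = the rest.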

Assay: antifungal drug efflux pump blockers, triplex strains – S. cerevisiae, Nile Red, multiplex, primary screen (AID 485275);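 also: Nile Red retained in pooled yeast measured as flow cytometry median fluorescence; 0% = buffer negative control and 100% = Enniatin B positive control; higher means more Nile Red kept so more efflux inhibition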
Details: S. cerevisiae Candida pump triplex, at 10 µM, active compounds read high
For `CN(CCCl)Cc1cc(Cl)c(NC2=NCCN2)c(Cl)c1`, the inhibition was inactive: 0.1%.
With `CCOP(=O)(Nc1ccc(C)cn1)OCC` the inhibition was inactive: 0.23%.
For `O=P1(Nc2ccccn2)COc2ccccc2OC1`, the inhibition was inactive: 0.2%.
For `CCC1=CC2Cc3nc4ccc(Cl)cc4c(N)c3C(C1)C2` (centres undefined), the inhibition was inactive: 0%.
With `CCOP(=O)(NC(=NC(C)c1ccccc1)NC(C)c1ccccc1)OCC` (centres undefined) the inhibition was inactive: 0.59%.
For `Clc1n[nH]nc1-c1nn[nH][15n]1`, the inhibition was inactive: 0.05%.
In the case of `CC(C)(C)C(=O)NC(Sc1ncccn1)C(Cl)(Cl)Cl` (centres undefined), the inhibition is reported as inactive: -0.03%.
In the case of `COc1ccccc1CNC(=O)COC(=O)C(O)(c1ccccc1)c1ccccc1`, the inhibition is reported as inactive: -0.1%.
For `O=[As](O)(c1ccccc1Br)c1ccccc1Br`, the inhibition was inactive: 0.6%.
For `CC1(CBr)Cn2c(nc3ccccc3c2=O)S1` (centres undefined), the inhibition was inactive: 0.12%.
With `CC(C)/C=N\N=C(\N)N[N+](=O)[O-]` the inhibition was inactive: -0.09%.
For `CN(C(=O)Cc1ccc(Cl)c(Cl)c1)[C@@H]1CCCC[C@H]1N1CCCC1`, the inhibition was inactive: 0.04%.
With `Cc1nn(-c2ccccc2)c2c1P(=O)(N1CCOCC1)N(C)C(c1ccccc1)=N2` (centres undefined) the inhibition was inactive: 0.07%.
For `CC1CCC(C(C)C)C(OP(=O)(Nc2ccccn2)c2ccccc2)C1` (centres undefined), the inhibition was inactive: 0.02%.
With `Cc1ccc(C(=O)OC2CN3CCC2CC3)cc1` (centres undefined) the inhibition was inactive: 0.32%.
With `O=C(/C=C/c1ccccc1)OC1CN2CCC1CC2` (centres undefined) the inhibition was inactive: -0.17%.
With `CN(C)C1(CNC(=O)c2ccc(S(C)(=O)=O)cc2)CCCCC1` the inhibition was inactive: 0.04%.
With `O=P1(Nc2ncccn2)COc2ccccc2OC1` the inhibition was inactive: 0.18%.
With `O=P1(Nc2ccc(Br)cn2)COc2ccccc2OC1` the inhibition was inactive: -0.11%.
For `NS(=O)(=O)c1cccc(NC(=O)COC(=O)C(O)(c2ccccc2)c2ccccc2)c1`, the inhibition was inactive: 0.07%.
With `O=[As](O)(c1cccs1)c1cccs1` the inhibition was inactive: 0.33%.
With `Cc1ccc(OCC(=O)OC2CN3CCC2CC3)cc1` (centres undefined) the inhibition was inactive: 0.03%.
In the case of `Nc1cccc([As](=O)(O)c2ccccc2)c1`, the inhibition is reported as inactive: 0.12%.
In the case of `CS(=O)(=O)c1cc([N+](=O)[O-])c2no[n+]([O-])c2c1`, the inhibition is reported as inactive: 0.2%.
For `CCOP1(=S)c2c(C)nn(CCC#N)c2N=C(c2ccccc2F)N1C` (centres undefined), the inhibition was inactive: -0.04%.
With `O=P(Nc1nccs1)(c1ccccc1)c1nc2ccccc2s1` (centres undefined) the inhibition was active: 0.4%.
For `O=P(Nc1nccs1)(Oc1ccccc1)Oc1ccccc1`, the inhibition was inactive: -0.07%.
For `Nc1ccccc1[As](=O)(O)c1ccccc1`, the inhibition was inactive: 0.18%.
For `O=C(O)COc1ccc([As](=O)(O)O)cc1[N+](=O)[O-]`, the inhibition was inactive: 0.4%.
